Results of unrelated studies side by side (data: NIAID ChemDB).

All rows: tests in culture; agent: Candida albicans; read-out: EC50

Lines come from different laboratories, so protocols vary. ECn: concentration that inhibits the pathogen or its effect by n%. An empty or dashed field is not shown.

| compound | strain | read by | conditions | result |
|---|---|---|---|---|
| COc1ccc(CC(=O)c2ccc(OC)cc2)cc1 | 28 strains | - | - | >256 µg/mL |
| Cc1cnc(Nc2ccc(Cl)cc2)nc1Nc1ccc(Cl)cc1 | - | - | - | 0.92 µg/mL |
| C[C@H]1[C@H](O)[C@@H](C)/C=C/C=C/C=C/C=C/C=C/C=C/C=C/[C@H](O[C@@H]2O[C@H](C)[C@@H](O)[C@H](N)[C@@H]2O)C[C@@H]2O[C@](O)(C[C@@H](O)C[C@@H](O)CC[C@H](O)[C@@H](O)C[C@@H](O)CC(=O)O[C@H]1C)C[C@H](O)[C@H]2C(=O)O | 35 | broth dilution | - | 1 µM |
| OC[C@@H]1CO[C@](Cn2ccnc2)(c2ccc(-c3ccccc3)cc2)O1 | 44 strains | - | - | 32 µg/mL |
| S=C(S)n1nnc2ccccc21 | MTCC 183 | broth dilution / absorbance | 48 h | >50 µg/mL |
| COc1ccc(C(Cc2ccc(Cl)cc2)n2cncn2)cc1 | 28 strains | - | - | <256 µg/mL |
| Cc1ccc(Nc2ncc(C)c(Nc3ccc(C)cc3)n2)cc1 | - | - | - | 4.3 µg/mL |
| O=C(OCC1COC(Cn2ccnc2)(c2ccc(-c3ccccc3)cc2)O1)c1ccccc1 | 44 strains | - | - | 8 µg/mL |
| CC(=O)c1ccc(Nc2ncc(C)c(Nc3ccc(C(C)=O)cc3)n2)cc1 | - | - | - | 23.5 µg/mL |
| COc1ccc(C(O)C(Cc2ccc(Cl)cc2Cl)c2ccc(Cl)cc2)cc1 | 28 strains | - | - | >256 µg/mL |
| O=C(OC[C@H]1CO[C@](Cn2ccnc2)(c2ccc(-c3ccccc3)cc2)O1)c1ccccc1 | 44 strains | - | - | 16 µg/mL |
| CCC(c1ccc(OC)cc1)C(c1ccc(OC)cc1)n1cnnc1 | 28 strains | - | - | <256 µg/mL |
| CS(=O)(=O)OC[C@H]1CO[C@](Cn2ccnc2)(c2ccc(-c3ccccc3)cc2)O1 | 44 strains | - | - | >256 µg/mL |
| CCC(c1ccc(OC)cc1)C(c1ccc(OC)cc1)n1ccnc1 | 28 strains | - | - | <256 µg/mL |
| NC[C@@H]1O[C@H](O[C@H]2[C@@H](O)[C@H](O[C@@H]3[C@@H](O)[C@H](N)C[C@H](N)[C@H]3O[C@H]3O[C@H](CN)[C@@H](O)[C@H](O)[C@H]3N)O[C@@H]2CO)[C@H](N)[C@@H](O)[C@@H]1O | - | - | - | 1.1 µg/mL |